A mixed list of measured activities; the numbers were collected in NIAID ChemDB.

Fold resistance has wild type as its base.

SMILES | kind | organism | strain or isolate | mutations | cell line | target | method | measure | tested at | result
COc1ccc(CNc2nnc(NC(=O)c3ccc(I)cc3)s2)cc1OC | target | Human cytomegalovirus | - | - | - | Polymerase | - | IC50 | - | <25 µM
O=C1Nc2ccc(Cl)cc2[C@@](C#CC2CC2)(C(F)(F)F)O1 | host protein | Human | - | - | - | DNA polymerase alpha | - | IC50 | - | 108.6 µM
Cc1cn([C@@H]2O[C@H](CO[Si](C)(C)C(C)(C)C)[C@@]3(OS(=O)(=O)C=C3N)[C@H]2O[Si](C)(C)C(C)(C)C)c(=O)[nH]c1=O | target | HIV | - | RT-N137A | - | Reverse transcriptase | nucleotide incorporation / radiometric | IC50 | - | 1.8 µM
O=C(/C=C/c1ccccc1Cl)Nc1nnc(NCCCNC2CCCCC2)s1 | target | Human cytomegalovirus | - | - | - | Polymerase | - | IC50 | - | <25 µM
Nc1nc2c(ncn2[C@H]2CC[C@@H](COP(=O)(O)OP(=O)(O)OP(=O)(O)O)O2)c(=O)[nH]1 | target | HIV | - | RT-N137D | - | Reverse transcriptase | nucleotide incorporation / radiometric | fold resistance | - | 2.6
COc1cc(C[C@H](C)[C@H](C)Cc2ccc(O)c(O)c2)ccc1O | culture | Candida tropicalis | CCC 131-1997 | - | - | - | broth dilution | MIC50 | - | 31.25 µg/mL
O=C(/C=C/c1ccccc1)Nc1nnc(NCCc2c[nH]c3ccccc23)s1 | target | Human cytomegalovirus | - | - | - | Polymerase | - | IC50 | - | <25 µM
CO[C@H]1[C@@H](OC(=O)/C=C/C=C/C=C/C=C/C(=O)O)CC[C@@]2(CO2)[C@@H]1[C@@]1(C)O[C@@H]1CC=C(C)C | culture | Vittaforma corneae | - | - | RK-13 | - | - | inhibition | 0.0001 µg/mL | 24.5%
C#CC[C@@H](C(=O)N[C@H](/C=C/C(=O)OCC)C[C@@H]1CCNC1=O)n1cccc(NC(=O)c2cc(C)on2)c1=O | culture | Rhinovirus | Serotype 10 | - | H1-HELA | - | cytopathic effect / XTT | inhibition | 0.089 µM | 90%
CCOC(=O)Nc1cc2c(c(N)n1)N=C(c1ccc3ccccc3c1)CS2 | culture | Encephalitozoon intestinalis | - | - | RK-13 | - | - | inhibition | 0.1 µg/mL | 29.6%
CCCCCCCC/C=C/CCCCCCCC(=O)Nc1nnc(NCCC(=O)OC(C)(C)C)s1 | target | Human cytomegalovirus | - | - | - | Polymerase | - | IC50 | - | <25 µM
CC(=O)N[C@H]1[C@@H](O[C@@H]2O[C@H](C[C@@H](O)[C@H]3O[C@@H](n4ccc(=O)[nH]c4=O)[C@H](O)[C@@H]3O)[C@H](O)[C@H](O)[C@H]2NC(=O)/C=C/CC(C)C)O[C@H](CO)[C@@H](O)[C@@H]1O | culture | Encephalitozoon intestinalis | - | - | RK-13 | - | - | inhibition | 1 µg/mL | 82%
Cc1ccnc2c1NC(=O)c1cccnc1N2C1CC1 | culture | HIV-1 | - | RT-L74V K101E | MT-4 | - | - | EC95 | - | 1.5 µM
O=C(Nc1nnc(NCCc2cccs2)s1)c1ccc(F)cc1F | target | Human cytomegalovirus | - | - | - | Polymerase | - | IC50 | - | >25 µM
COc1ccc2cc3[n+](cc2c1OC)CCc1cc2c(cc1-3)OCO2 | culture | Vittaforma corneae | - | - | RK-13 | - | - | inhibition | 0.01 µg/mL | 20.3%
Cc1cn([C@H]2C=C[C@@H](COP(=O)(O)OP(=O)(O)OP(=O)(O)O)O2)c(=O)[nH]c1=O | target | HIV | - | RT-N137D | - | Reverse transcriptase | nucleotide incorporation / radiometric | IC50 | - | 1.6 µM
CC(=O)Oc1ccccc1C(=O)Nc1ncc([N+](=O)[O-])s1 | culture | Vittaforma corneae | - | - | RK-13 | - | - | inhibition | 10 µg/mL | 83%
COc1ccccc1C(=O)Nc1nnc(NCC(c2ccccc2)c2ccccc2)s1 | target | Human cytomegalovirus | - | - | - | Polymerase | - | IC50 | - | >25 µM
CCO/N=C/c1ccc(OCCC2CCN(c3ccc(C)nn3)CC2)cc1 | culture | Rhinovirus | 1794 (ICAM-1 receptor group 40) | - | KB | - | neutral red | EC50 | - | 0.001 µM

Repeating the first 2 entries:

COc1ccc(CNc2nnc(NC(=O)c3ccc(I)cc3)s2)cc1OC ; kind: target ; organism: Human cytomegalovirus ; target: Polymerase ; measure: IC50 ; result: <25 µM
O=C1Nc2ccc(Cl)cc2[C@@](C#CC2CC2)(C(F)(F)F)O1 ; kind: host protein ; organism: Human ; target: DNA polymerase alpha ; measure: IC50 ; result: 108.6 µM

Percent inhibition refers to the dose given; in toxicity tests it is the harm to the cells. ECn is the concentration giving n% inhibition of infection, replication or growth. An empty or dashed field is not shown. Rows are shuffled and stem from different studies. MIC50, MIC90 and the like: level of inhibition, or share of isolates inhibited. ICn: concentration for n% inhibition.